The record followed here is patent publication US20240262893A1, “BINDING POLYPEPTIDES AGAINST SARS COV-2 AND USES THEREOF” (APPLIED BIOMEDICAL SCIENCE INSTITUTE, published 2024).

For the experiment, the target named is parental receptor binding domain (RBD) protein (amino acids 319 to 541 of the spike protein) with c-terminal … (SARS-CoV-2 (Wuhan-Hu-1), UniProt P0DTC2 319-541). As to the kind of experiment: ELISA, RBD coated, IgG detected with anti-human Fc-HRP. For orientation: In an ELISA, binding on a coated surface is turned into a signal by an enzyme label.

B1: R2C3 (R5C1) ultralong CDR3 chimeric bovine-human IgG1 antibody (antibody)
VH: QVQLRESGPSLVKPSQTLSLTCTASGFSLSDKPVGWVRQAPGKPLEWLGSIDTAENTGYNPGLKSRLSITKDNSKSQVSLSLSSVTTEDSATYYCATVHQKTRKEKSCPDGYLYSSNTGRGYDCGVWTCRRVGGEFCSATGDWTSPSEEDFYEFYVDTWGQGAPVTVSS
VL: QAVLNQPSSVSGSLGQRVSITCSGSSSNVGNGYVSWYQLIPGSAPRTLIYGDTSRASGVPDRFSGSRSGNTATLTISSLQAEDEADYFCASAEDSSSNAVFGSGTTLTVL
Regarding B1, the binding result is listed as “binds”.
